Compound potency records, mixed from different reports. Data source: NIAID ChemDB in PubChem.

Shared fields: tests in culture; agent: Candida albicans; endpoint: MIC

Rows are shuffled and stem from different studies. An empty or dashed field is not shown.

compound,strain or isolate,method,value
CCc1nc(SCC(=O)N/N=C(\C)c2ccccc2[N+](=O)[O-])n[nH]1,ATCC 90028,-,200 µg/mL
O=c1c2ccccc2cnn1CCc1nnc(NCc2ccccc2)s1,ATCC 10231,-,512 µg/mL
COc1cc(NC(C)CCCNC(=O)[C@H](CCCN)NC(=O)[C@@H](N)CCCN)c2ncccc2c1,-,broth dilution,>20 µg/mL
Cc1c(Sc2ccccc2)[n+](=O)c2cc(Cl)ccc2n1[O-],Clinical isolate 7,-,15.6 µg/mL
C/C(=N\NC(=O)CSc1n[nH]c(C)n1)c1ccc([N+](=O)[O-])cc1,ATCC 90028,-,100 µg/mL
Cc1ccc2c(c1)c1nnc(N3CCN(C)CC3)nc1n2C,2005E,-,2 µg/mL
COc1ccc(-c2csc(N3N=C(c4cccs4)CC3c3ccc(Cl)cc3)n2)cc1,Clinical isolates,-,125 µg/mL
COc1ccc(-n2c(Cn3ncc4ccccc4c3=O)n[nH]c2=S)cc1,ATCC 10231,-,512 µg/mL
COc1cc(O)c2c(c1)C(=O)c1c(cc3c(c1O)-c1c(cc(C)c(C(=O)NC(CO)C(=O)O)c1O)[C@H](OC1OC(C)C(O)C(OC4OCC(O)C(O)C4O)C1O)C3O)C2=O,ATCC 32354 (B311),-,3.1 µg/mL
CC(C)=CCC1=CC(=O)C(=O)C(C)=C1O,ATCC 10231,-,37 µg/mL
COc1cc(NC(C)CCCNC(=O)CC(NC(=O)[C@H](N)CCCCN)C(=O)O)c2ncccc2c1,-,broth dilution,>20 µg/mL
Clc1ccccc1C(c1ccccc1)(c1ccccc1)n1ccnc1,ATCC 90028,-,1 µg/mL
Cc1ccc2nc(NC(=O)CSc3nnc(-c4ccc5ncccc5c4)o3)sc2c1,-,agar,100 µg/mL
COc1cc(NC(C)CCCNC(=O)[C@H](CCCN)NC(=O)[C@@H](N)CCCN)c2nc(C(C)(C)C)ccc2c1,-,broth dilution,>20 µg/mL
Cc1c(S(=O)(=O)c2ccccc2)[n+](=O)c2cc(Cl)ccc2n1[O-],Clinical isolate 24,-,31.25 µg/mL
CC(=O)Nc1ccc(NC(=O)CSc2nnc(-c3ccc4ncccc4c3)o2)cc1,-,agar,100 µg/mL
COc1ccc(-c2csc(N3N=C(c4cccs4)CC3c3ccccc3)n2)cc1,Clinical isolates,-,125 µg/mL
CC(C)CCCC(C)CCCC(C)CCCCC(C)CCCC(C)CCC[N+](C)(C)[O-],S9,-,>200 µg/mL
Cc1c(S(=O)(=O)c2ccccc2)[n+](=O)c2ccccc2n1[O-],Clinical isolate 2,-,31.25 µg/mL
CC[N+](C)(CC)CCCC(C)=CCC/C(C)=C/CCC=C(C)CC/C=C(\C)CCC[N+](C)(CC)CC,S124,-,25 µg/mL
O=C(/C=C/c1ccc(O)cc1O)c1ccccc1,SDAU5,-,75 µg/mL
CCOc1cc2c(cc1F)n([O-])c(C)c(S(=O)(=O)c1ccccc1)[n+]2=O,Clinical isolate 13,-,15.6 µg/mL
COc1cc(O)c2c(c1)C(=O)c1c(cc3c(c1O)-c1c(cc(C)c(C(=O)NC(CO)C(=O)O)c1O)[C@H](OC1OC(C)C(O)C(OC4OCC(O)C(O)C4O)C1O)C3O)C2=O,A25578 (flucytosine-resistant),-,4 µg/mL
Cc1ccc(Nc2nnc(CCn3ncc4ccccc4c3=O)s2)cc1,ATCC 10231,-,128 µg/mL
Cc1ccc(O)c(C(=O)/C=C/c2ccc(O)cc2O)c1,SDAU5,-,75 µg/mL
Cc1ccc(-c2csc(N3N=C(c4cccs4)CC3c3ccc([N+](=O)[O-])cc3)n2)cc1,Clinical isolates,-,250 µg/mL
CCN(CC)CCCC(C)CCCC(C)CCCCC(C)CCCC(C)CCCN(CC)CC,S124,-,100 µg/mL
O=c1c2ccccc2cnn1CCc1nnc(NCCc2ccccc2)s1,ATCC 10231,-,32 µg/mL
C/C(=N\NC(=O)CSc1ncn[nH]1)c1ccccc1[N+](=O)[O-],ATCC 90028,-,200 µg/mL
CC(C)=CCC/C(C)=C/CCC(C)=CCC/C=C(\C)CCC=C(C)CCCN(C)C,S9,-,25 µg/mL
CC(/C=C/C=C(\C)C(O)C(C)C(=O)O[C@H]1C[C@@H](C)C=C2C=C[C@@](C)(O)[C@](C)(C(=O)CCO)[C@H]21)=C\C=C\C(=O)O,ATCC 62376,-,50 µg/mL
CCCCCCCCCCCCCCCCCC(=O)NC1CC(O)C(O)NC(=O)C2C(O)C(C)CN2C(=O)C(C(C)O)NC(=O)C(C(O)C(O)c2ccc(O)cc2)NC(=O)C2CC(O)CN2C(=O)C(C(C)O)NC1=O,MY1750,-,1 µg/mL
N#Cc1ccc2nc(NC(=O)CSc3nnc(-c4ccc5ncccc5c4)o3)sc2c1,-,agar,100 µg/mL
CCCCCCCCCCCC[N+](C)(C)[O-],S9,-,100 µg/mL
CCCCCCCCOc1ccc(C(=O)NC2C[C@@H](O)[C@@H](O)NC(=O)C3[C@@H](O)[C@@H](C)CN3C(=O)C(C(C)O)NC(=O)C([C@H](O)[C@@H](O)c3ccc(O)cc3)NC(=O)C3C[C@@H](O)CN3C(=O)C(C(C)O)NC2=O)cc1,MY1208,-,0.5 µg/mL
Cc1ccc2c(c1)c1nnc(N3CC[N+](C)([O-])CC3)nc1n2C,C316,-,>125 µg/mL
CC(C)=CCC/C(C)=C/CCC(C)=CCC/C=C(\C)CCC=C(C)CCC[N+](C)(C)C,S9,-,6.25 µg/mL
O=C(Nc1nc2ccc(NC(=O)[C@@H]3CCC[C@H](NCc4ccc5ccccc5c4)C3)cc2s1)C1CCCC1,TIMM 0171,-,0.78 µM
COc1cc(NC(C)CCCNC(=O)[C@@H](CCCCN)NC(=O)[C@H](N)CCCCN)c2nc(C(C)(C)C)ccc2c1,-,broth dilution,>20 µg/mL
O=c1c2ccccc2cnn1Cc1n[nH]c(=S)n1-c1ccc(Cl)cc1,ATCC 10231,-,512 µg/mL
C/C(=N\NC(=O)CSc1n[nH]c(C)n1)c1ccccc1Cl,ATCC 90028,-,200 µg/mL
O=c1c2ccccc2cnn1Cc1n[nH]c(=S)n1-c1ccccc1,ATCC 10231,-,512 µg/mL
C/C(=N\NC(=O)CSc1ncn[nH]1)c1ccc([N+](=O)[O-])cc1,ATCC 90028,-,400 µg/mL
COc1ccc(-c2csc(N3N=C(c4cccs4)CC3c3ccc4c(c3)OCO4)n2)cc1,Clinical isolates,-,250 µg/mL
COc1cc(NC(C)CCCNC(=O)[C@@H](CCCN)NC(=O)[C@H](N)CCCN)c2nc(C(C)(C)C)ccc2c1,-,broth dilution,>20 µg/mL
COc1ccc(-c2csc(N3N=C(c4cccs4)CC3c3ccc(C)cc3)n2)cc1,Clinical isolates,-,125 µg/mL
O=C(CSc1nnc(-c2ccc3ncccc3c2)o1)Nc1nc2ccc(F)cc2s1,-,agar,25 µg/mL

7 of the rows above, restated:

compound,strain or isolate,method,value
COc1ccc(-c2csc(N3N=C(c4cccs4)CC3c3ccccc3)n2)cc1,Clinical isolates,-,125 µg/mL
Cc1c(Sc2ccccc2)[n+](=O)c2cc(Cl)ccc2n1[O-],Clinical isolate 7,-,15.6 µg/mL
O=C(Nc1nc2ccc(NC(=O)[C@@H]3CCC[C@H](NCc4ccc5ccccc5c4)C3)cc2s1)C1CCCC1,TIMM 0171,-,0.78 µM
C/C(=N\NC(=O)CSc1n[nH]c(C)n1)c1ccc([N+](=O)[O-])cc1,ATCC 90028,-,100 µg/mL
O=c1c2ccccc2cnn1Cc1n[nH]c(=S)n1-c1ccc(Cl)cc1,ATCC 10231,-,512 µg/mL
COc1cc(NC(C)CCCNC(=O)[C@@H](CCCN)NC(=O)[C@H](N)CCCN)c2nc(C(C)(C)C)ccc2c1,-,broth dilution,>20 µg/mL
C/C(=N\NC(=O)CSc1ncn[nH]1)c1ccccc1[N+](=O)[O-],ATCC 90028,-,200 µg/mL